Data set [1] has as its system SARS coronavirus.
In data set [2] the test system is SARS coronavirus. Type of data set: cell-based.
A further data set deals with SARS-associated virus. The conditions noted are these: cited from earlier work.
The test system of data set [3] is SARS coronavirus. The format is cell-based. The source holds these as a separate data set.

A value given as a limit tells only on which side of the number the result lay.

As to “Interferon beta 1a: interferon-beta-1a (Rebif, Serono, Italy)”, the CC50 with fRhK4 cell line is given as >10,000 IU ^a. For the same molecule, in the data set with SARS coronavirus [1], the “EC50 at 72 h” value was 10,000 IU ^a, the antiviral activity entry is listed as “showed antiviral activity” and the “inhibitory activities by neutralization tests” value was “detectable inhibitory activities”. Besides, in the data set on SARS coronavirus [2], the “EC50 (plaque reduction assay)” value came out at 8 U/ml.

B1: interferon-beta: interferon-beta, subtype not specified at that place; in this study interferon-beta-1a was used (protein, UniProt P01574 22-187, looked up)
Interferon beta: MSYNLLGFLQRSSNFQCQKLLWQLNGRLEYCLKDRMNFDIPEEIKQLQQFQKEDAALTIYEMLQNIFAIFRQDSSSTGWNETIVENLLANVYHQINHLKTVLEEKLEKEDFTRGKLMSSLHLKRYYGRILHYLKAKEYSHCAWTIVRVEILRNFYFINRLTGYLRN
Take B1: in the data set on SARS-associated virus, the “antiviral activity against SARS coronavirus” value is “significant antiviral activity”. Also, the “activity in Vero-E6 cell line compared with fRhK-4” value in the data set with SARS coronavirus [3] was “more active”.

The record behind these values is article PMC7128415 (Journal of Clinical Virology, 2004).
